Tested on: C. albicans
Assay: In vitro microbicidal activity, 0.2% phosphate buffer with PHMB (Example 4)
Type: cell-based
Settings: additive 0.5%, PHMB 0.0001%, pH 7.2, 4 hours, buffer control 0.99

`OCCN(CCO)CCO` was tested, and the “Improvement (log reduction versus buffer control)” value was 0.83.

Reference: US10138384B2, “Ophthalmic and contact lens solutions using bicine” (priority 2000, dated 2018)
